Pooled drug test results. Numbers come from NIAID ChemDB, via PubChem.

Shared fields: enzyme or target tests; organism: Hepatitis C virus

Neighbouring rows are from separate reports. ICn is the concentration giving n% inhibition. Blank or dashed fields: not listed here.

{"smiles": "COc1cccc(COC(=O)Nc2ccsc2-c2nc(C(=O)O)c(O)c(=O)[nH]2)c1OC", "read-out": "IC50", "protein": "HCV polymerase", "result": "<25 µM"}
{"smiles": "COc1ccc2c(OC3CC(C(=O)NC4(C(=O)NS(=O)(=O)c5ccccc5)CC4)N(C(=O)[C@@H](NC(=O)OC(C)(C)C)C(C)C)C3)cc(-c3ccccc3)nc2c1", "read-out": "Ki", "protein": "NS3 protease", "result": "0.03 µM"}
{"smiles": "O=C(NCc1cccs1)Nc1cscc1-c1nc(C(=O)O)c(O)c(=O)[nH]1", "read-out": "IC50", "protein": "HCV polymerase", "result": "<25 µM"}
{"smiles": "C=C[C@@H]1C[C@]1(NC(=O)[C@@H]1C[C@@H](Oc2cc(-c3ccccc3)nc3cc(OC)ccc23)CN1C(=O)[C@@H](NC(=O)OC(C)(C)C)C(C)(C)C)C(=O)NS(=O)(=O)c1ccccc1C(=O)OC", "strain": "BMS", "read-out": "IC50", "protein": "NS3/NS4A protease", "result": "<0.5 µM"}
{"smiles": "CC(=O)N[C@@H](CC(=O)O)C(=O)N[C@H](CC(C(=O)O)C(=O)O)C(=O)N[C@H](C(=O)N[C@@H](CCC(=O)O)C(=O)N[C@@H](CC1CCCCC1)C(=O)N[C@@H](CS)C(=O)C(=O)O)c1ccccc1", "read-out": "Ki", "protein": "NS3/NS4A serine protease", "result": "0.001 µM"}
{"smiles": "O=C(O)c1nc(-c2sccc2NC(=O)C2CCc3ccccc32)[nH]c(=O)c1O", "read-out": "IC50", "protein": "HCV polymerase", "result": "<25 µM"}
{"smiles": "C=C[C@@H]1C[C@]1(NC(=O)[C@@H]1C[C@@H](Oc2cc(-c3ccccc3)nc3cc(OC)ccc23)CN1C(=O)[C@@H](NC(=O)Oc1ccccc1)C(C)(C)C)C(=O)NS(=O)(=O)C1CC1", "strain": "BMS", "read-out": "IC50", "protein": "NS3/NS4A protease", "result": "<0.05 µM"}
{"smiles": "C=CC1CC1(NC(=O)C1CC(Oc2cc(-c3ccccc3)nc3cc(OC)ccc23)CN1C(=O)[C@@H](NC(=O)OC(C)(C)C)C(C)C)C(=O)NS(=O)(=O)Cc1ccccc1", "read-out": "Ki", "protein": "NS3 protease", "result": "0.018 µM"}
{"smiles": "COc1ccc2c(O[C@@H]3C[C@@H](C(=O)NC4(C(=O)NS(=O)(=O)C5CC5)CC4)N(C(=O)[C@@H](NC(=O)OC(C)(C)C)C(C)(C)C)C3)cc(-c3ccccc3)nc2c1", "strain": "BMS", "read-out": "IC50", "protein": "NS3/NS4A protease", "result": "<0.05 µM"}
{"smiles": "CCC[C@H](NC(=O)C1CC(Oc2cc(-c3ccccc3)nc3cc(OC)ccc23)CN1C(=O)[C@@H](NC(=O)OC(C)(C)C)C(C)C)C(=O)N(C)S(=O)(=O)c1ccccc1", "read-out": "Ki", "protein": "NS3 protease", "result": "3.7 µM"}
{"smiles": "CC(=O)N[C@@H](CC(=O)O)C(=O)N[C@H](CC(C(=O)O)C(=O)O)C(=O)N[C@@H](Cc1c[nH]c2ccccc12)C(=O)N[C@@H](CCC(=O)O)C(=O)N[C@@H](CC1CCCCC1)C(=O)N[C@@H](CS)C(=O)C(=O)O", "read-out": "Ki", "protein": "NS3/NS4A serine protease", "result": "0.00002 µM"}
{"smiles": "Cc1oc(-c2ccccc2)nc1CC(=O)Nc1ccsc1-c1nc(C(=O)O)c(O)c(=O)[nH]1", "read-out": "IC50", "protein": "HCV polymerase", "result": "<25 µM"}
{"smiles": "CCC[C@H](NC(=O)[C@H](Cc1ccc2ccccc2c1)NC(=O)[C@H](CCC(=O)O)NC(=O)[C@@H](NC(=O)CCC(=O)O)C1CCCCC1)C(=O)O", "read-out": "Ki", "protein": "NS3 protease", "result": "46 µM"}
{"smiles": "CC(=O)N[C@@H](CC(=O)O)C(=O)N[C@H](CC(C(=O)O)C(=O)O)C(=O)N[C@H](C(=O)N[C@@H](CC(=O)O)C(=O)N[C@@H](CC1CCCCC1)C(=O)N[C@@H](CS)C(=O)C(=O)O)C(c1ccccc1)c1ccccc1", "read-out": "Ki", "protein": "NS3/NS4A serine protease", "result": "0.00002 µM"}
{"smiles": "O=C(Nc1cccc(-c2nc(C(=O)O)c(O)c(=O)[nH]2)c1)c1cc(Cl)sc1Cl", "read-out": "IC50", "protein": "HCV polymerase", "result": "<100 µM"}
{"smiles": "CCC[C@H](NC(=O)C1CC(Oc2cc(-c3ccccc3)nc3cc(OC)ccc23)CN1C(=O)[C@@H](NC(=O)OC(C)(C)C)C(C)C)C(=O)NS(=O)(=O)Cc1ccccc1", "read-out": "Ki", "protein": "NS3 protease", "result": "0.18 µM"}
{"smiles": "O=C(O)c1nc(-c2cccc(NS(=O)(=O)c3cc(Cl)c(Cl)cc3Cl)c2)[nH]c(=O)c1O", "read-out": "IC50", "protein": "HCV polymerase", "result": "<100 µM"}
{"smiles": "CCC[C@H](NC(=O)[C@H](CC1CCCCC1)NC(=O)[C@@H](NC(=O)[C@@H](NC(=O)CCC(=O)O)C1CCCCC1)C(C)CC)C(=O)NS(=O)(=O)c1ccccc1", "read-out": "Ki", "protein": "NS3 protease", "result": "5.3 µM"}
{"smiles": "C=C[C@@H]1C[C@]1(NC(=O)[C@H]1C[C@@H](Oc2cc(-c3ccccc3)nc3cc(OC)ccc23)CN1C(=O)[C@@H](NC(=O)OC(C)(C)C)C(C)(C)C)C(=O)NS(C)(=O)=O", "strain": "BMS", "read-out": "IC50", "protein": "NS3/NS4A protease", "result": "<0.05 µM"}
{"smiles": "Cn1c(=O)c(C2=NS(=O)(=O)c3ccccc3N2)c(O)c2ccccc21", "read-out": "IC50", "protein": "RNA-dependent RNA polymerase", "result": ">50 µM"}
{"smiles": "O=C(CCc1ccsc1)Nc1ccsc1-c1nc(C(=O)O)c(O)c(=O)[nH]1", "read-out": "IC50", "protein": "HCV polymerase", "result": "<25 µM"}
{"smiles": "CC(=O)N[C@@H](CC(=O)O)C(=O)N[C@H](CC(C(=O)O)C(=O)O)C(=O)N[C@@H](Cc1cccc2ccccc12)C(=O)N[C@@H](CCC(=O)O)C(=O)N[C@@H](CC1CCCCC1)C(=O)N[C@@H](CS)C(=O)C(=O)O", "read-out": "Ki", "protein": "NS3/NS4A serine protease", "result": "0.00007 µM"}
{"smiles": "CCC[C@H](NC(=O)C1CC(Oc2cc(-c3ccccc3)nc3cc(OC)ccc23)CN1C(=O)[C@@H](NC(=O)OC(C)(C)C)C(C)C)C(=O)NCc1ccccc1", "read-out": "Ki", "protein": "NS3 protease", "result": "5.2 µM"}
{"smiles": "CC(=O)N[C@@H](CC(=O)O)C(=O)N[C@H](CC(C(=O)O)C(=O)O)C(=O)N[C@H](C(=O)N[C@@H](CCC(=O)O)C(=O)N[C@@H](CC1CCCCC1)C(=O)N[C@@H](CS)C(=O)C(=O)O)c1cccc2ccccc12", "read-out": "Ki", "protein": "NS3/NS4A serine protease", "result": "0.00005 µM"}
{"smiles": "CCC[C@H](NC(=O)C1CC(Oc2cc(-c3ccccc3)nc3cc(OC)ccc23)CN1C(=O)[C@@H](NC(=O)OC(C)(C)C)C(C)C)C(=O)CS(=O)(=O)c1ccccc1", "read-out": "Ki", "protein": "NS3 protease", "result": "2.7 µM"}
{"smiles": "O=C(Nc1cscc1-c1nc(C(=O)O)c(O)c(=O)[nH]1)NS(=O)(=O)c1cccc([N+](=O)[O-])c1", "read-out": "IC50", "protein": "HCV polymerase", "result": "<25 µM"}
{"smiles": "CC(=O)N[C@@H](CC(=O)O)C(=O)N[C@H](C(=O)N[C@H](C(=O)N[C@@H](CCC(=O)O)C(=O)N[C@@H](CC1CCCCC1)C(=O)N[C@@H](CS)C(=O)C(=O)O)C(c1ccccc1)c1ccccc1)c1ccccc1", "read-out": "Ki", "protein": "NS3/NS4A serine protease", "result": "160 µM"}

Again, the opening 4 rows:

smiles	strain	read-out	protein	result
COc1cccc(COC(=O)Nc2ccsc2-c2nc(C(=O)O)c(O)c(=O)[nH]2)c1OC	-	IC50	HCV polymerase	<25 µM
COc1ccc2c(OC3CC(C(=O)NC4(C(=O)NS(=O)(=O)c5ccccc5)CC4)N(C(=O)[C@@H](NC(=O)OC(C)(C)C)C(C)C)C3)cc(-c3ccccc3)nc2c1	-	Ki	NS3 protease	0.03 µM
O=C(NCc1cccs1)Nc1cscc1-c1nc(C(=O)O)c(O)c(=O)[nH]1	-	IC50	HCV polymerase	<25 µM
C=C[C@@H]1C[C@]1(NC(=O)[C@@H]1C[C@@H](Oc2cc(-c3ccccc3)nc3cc(OC)ccc23)CN1C(=O)[C@@H](NC(=O)OC(C)(C)C)C(C)(C)C)C(=O)NS(=O)(=O)c1ccccc1C(=O)OC	BMS	IC50	NS3/NS4A protease	<0.5 µM